Data source: PubChem BioAssay AID504761 (Drosophila RNAi Screening Center, 2011)
In all, the deposit lists about 22,000 reagents; below is an unselected part of those that have a named target and a result. Of all reagents, 116 (0.52%) got an active call. 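Calls depend on retest data that are not deposited; infection was ranked per plate without normalising between plates; the unit of the infection score is not given.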 Raw values vary from plate to plate and are shown uncorrected. A number with no mark means an inactive call. Reagents against one gene are numbered here. The record does not give: the amount of reagent, the time to read-out.

Test: 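Insect host genes that dengue virus relies on to spread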 (primary screen)
Cells: D.Mel-2 cells from Drosophila
Reagent: long dsRNA against Drosophila genes
Conditions: infection with dengue virus type 2; dose and infection time not stated
Detection: 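Per well on two replicate plates, imaging gave the percent of cells positive for viral envelope protein, ranked by infection, and a nuclear count of cells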
Direction: infection score: higher = more virus-infected cells; cell count: higher = more cells in the well
Call rule: 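Low infection ranks in the two replicates (chance level up to 0.065) followed by a retest with a 1.5-fold or larger significant decrease, p below 0.05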
Calls: active = confirmed: knock-down lowers infection; inactive = not picked or not confirmed

| gene knocked down | reagent no. | infection score, replicate 1 | infection score, replicate 2 | cell count, replicate 1 | cell count, replicate 2 |
| --- | --- | --- | --- | --- | --- |
| CG4281 | 1 | 12.2 | 3.68 | 6114 | 6223 |
| CG4281 | 2 | 13.7 | 5.49 | 4746 | 5119 |
| CG10993 | 1 | 3.5 | 4.38 | 6293 | 6071 |
| Men-b (Malic enzyme b) | 1 | 1.63 | 1.21 | 6554 | 6138 |
| CG7173 | 1 | 16.3 | 17.7 | 6148 | 5335 |
| CG7173 | 2 | 12.8 | 15.9 | 5144 | 6047 |
| CG5188 | 1 | 1.86 | 5.13 | 6169 | 6203 |
| dj-1beta | 1 | 5.58 | 3.58 | 6147 | 726 |
| dj-1beta | 2 | 3.44 | 4.23 | 6623 | 6241 |
| loqs (loquacious) | 1 | 9.53 | 7.37 | 4764 | 4436 |
| Dap160 (Dynamin associated protein 160) | 1 | 8.47 | 14.5 | 6201 | 4852 |
| Dap160 (Dynamin associated protein 160) | 2 | 30.1 | 18 | 5193 | 7170 |

Continued; the last 3 above are carried over.
| gene knocked down | reagent no. | infection score, replicate 1 | infection score, replicate 2 | cell count, replicate 1 | cell count, replicate 2 |
| --- | --- | --- | --- | --- | --- |
| loqs (loquacious) | 1 | 9.53 | 7.37 | 4764 | 4436 |
| Dap160 (Dynamin associated protein 160) | 1 | 8.47 | 14.5 | 6201 | 4852 |
| Dap160 (Dynamin associated protein 160) | 2 | 30.1 | 18 | 5193 | 7170 |
| cyc (cycle) | 1 | 2.58 | 8.73 | 6367 | 6243 |
| Spn75F (Serpin 75F) | 1 | 0.74 | 1.03 | 5911 | 5804 |
| Gld (Glucose dehydrogenase) | 1 | 3.02 | 6.01 | 6685 | 6856 |
| CG8517 | 1 | 1.24 | 4.81 | 6107 | 5901 |
| TpnC25D (Troponin C at 25D) | 1 | 2.84 | 2 | 6540 | 6839 |
| TpnC25D (Troponin C at 25D) | 2 | 2.45 | 2 | 6652 | 6551 |
| sxe2 (sex-specific enzyme 2) | 1 | 9.38 | 13.6 | 6570 | 6981 |
| sca (scabrous) | 1 | 8.41 | 6.15 | 6922 | 6444 |
| sca (scabrous) | 2 | 20.6 | 4.26 | 4016 | 1196 |
| GlyT (Glycine transporter) | 1 | 7.68 | 15.5 | 5913 | 5883 |
| GlyT (Glycine transporter) | 2 | 8.63 | 3.4 | 5837 | 6095 |
